A mixed list of measured activities; the numbers were collected in NIAID ChemDB.

Shared fields: growth or infection tests; species: HIV-1; measure: EC50

Blank or dashed fields: not listed here. Lines come from different laboratories, so protocols vary. ECn is the concentration giving n% inhibition of infection, replication or growth. a–b is a range or a potency band.

smiles | strain | changes | cell line | read by | result
Cc1cc(S(N)(=O)=O)ccc1NC(=O)COc1ccc(Cl)cc1C(=O)c1cc(Cl)cc(C#N)c1 | HXB2 | RT-V106I | HeLa + HELA CD4+ | β-galactosidase | <0.01 µM
CC(C)=CCOc1cc(NC(=S)c2ccoc2C)ccc1Cl | NL4-3 (RT A98G) | RT-A98G | CEM + CEM-SS | cytopathic effect / XTT | 0.02 µM
COCc1nc(Nc2ccc(C#N)cc2)nc(Oc2c(C)cc(/C=C/C#N)cc2C)c1C(=O)NCc1ccncc1 | IIIB | - | MT4 CMV-EGFP | - | 0.00398 µM
CCCc1cc(=O)oc2c3c(c4c(c12)OC(C)(C)CC4)O[C@@H](C)[C@H](C)[C@@H]3O | Calanolide A-resistant (RT T139I) | RT-T139I | CEM + CEM-SS | XTT | >20 µM
CC(C)C1=C2[C@H]3CC[C@@H]4[C@@]5(C)CC[C@H](OC(=O)[C@H]6C[C@@H](C(=O)O)C6(C)C)C(C)(C)[C@@H]5CC[C@@]4(C)[C@]3(C)CC[C@@]2([C@@H](O)CNC(=O)C(F)NC(=O)c2ccc(Cl)cc2)CC1=O | 92HT599 | - | MT-2 | p24 / ELISA | <1 µM
COCCNC(=O)c1c(COC)nc(Nc2ccc(C#N)cc2)nc1Nc1c(C)cc(/C=C/C#N)cc1C | IIIB | - | MT4 CMV-EGFP | - | 0.00347 µM
CC(C)=CCOc1cc(NC(=S)c2ccsc2C)ccc1Cl | NL4-3 (RT Y181C) | RT-Y181C | CEM + CEM-SS | cytopathic effect / XTT | 0.03 µM
CC(C)C1=C2[C@H]3CC[C@@H]4[C@@]5(C)CC[C@H](OC(=O)[C@H]6C[C@@H](C(=O)O)C6(C)C)C(C)(C)[C@@H]5CC[C@@]4(C)[C@]3(C)CC[C@@]2([C@@H](O)CNC(=O)C(C)(C)NC(=O)c2nccs2)CC1=O | 92HT599 | - | MT-2 | p24 / ELISA | <1 µM
Cc1ncc(-c2ccc(OCCOc3ccc(Cl)cc3F)nc2)c(N2CCC(C)(C)CC2)c1[C@H](OC(C)(C)C)C(=O)O | NL4-3 | - | MT-2 | luminescence | 0.0037 µM
Cc1cc(S(N)(=O)=O)ccc1NC(=O)COc1ccc(Cl)cc1C(=O)c1cccc(C#N)c1 | HXB2 | RT-V108I Y181C | HeLa + HELA CD4+ | β-galactosidase | <0.01 µM
Cc1ncc(-c2ccc(OC[C@@](C)(O)c3ccccc3)cn2)c(N2CCC(C)(C)CC2)c1[C@H](OC(C)(C)C)C(=O)O | NL4-3 | - | MT-2 | luminescence | 0.0071 µM
COc1cccc2c(C(=O)C(=O)N3CCN(C(=O)c4ccccc4)C[C@H]3C)c[nH]c12 | - | - | HeLa + HELA CD4+/CCR5 | luciferase | <10 µM
Cc1ncc(-c2cnc(OCCC3=CCCCC3)c(F)c2)c(N2CCC(C)(C)CC2)c1[C@H](OC(C)(C)C)C(=O)O | NL4-3 | - | MT-2 | luminescence | 0.0054 µM
CC(C)C1=C2[C@H]3CC[C@@H]4[C@@]5(C)CC[C@H](OC(=O)[C@H]6C[C@@H](C(=O)O)C6(C)C)C(C)(C)[C@@H]5CC[C@@]4(C)[C@]3(C)CC[C@@]2(CCNCc2ccc(N3CCC(O)CC3)cc2)CC1=O | 92HT599 | - | MT-2 | p24 / ELISA | <1 µM
Cc1cc(S(N)(=O)=O)ccc1NC(=O)COc1ccc(Cl)cc1C(=O)c1cc(F)cc(F)c1 | HXB2 | RT-V106A Y181C | HeLa + HELA CD4+ | β-galactosidase | 0.011–0.1 µM
CC(C)(C)OC(=O)Nc1ccc(C(=O)N2CCN(C(=O)C(=O)c3c[nH]c4cccc(Cl)c34)CC2)cc1 | - | - | HeLa + HELA CD4+/CCR5 | luciferase | <10 µM
COCc1nc(Nc2ccc(C#N)cc2)nc(Nc2c(C)cc(/C=C/C#N)cc2C)c1C(=O)NCCN1CCOCC1 | L1001+K103N | - | MT4 CMV-EGFP | - | 0.214 µM
O=C(C(=O)N1CCN(C(=O)c2ccccc2)CC1)c1c[nH]c2c(OCC(F)(F)F)ccc(F)c12 | - | - | HeLa + HELA CD4+/CCR5 | luciferase | <10 µM
C[C@H]1CO[C@@H]2Cn3cc(C(=O)NCc4ccc(F)cc4F)c(=O)c(O)c3C(=O)N12 | NL4-3 | N155H | CBMC | RT activity | 0.0012 µM
Cc1ncc(-c2ccc(N(C)CCOc3ccc(F)cc3F)cn2)c(N2CCC(C)(C)CC2)c1[C@H](OC(C)(C)C)C(=O)O | NL4-3 | - | MT-2 | luminescence | 0.0013 µM
CC(C)C1=C2[C@H]3CC[C@@H]4[C@@]5(C)CC[C@H](OC(=O)[C@H]6C[C@@H](C(=O)O)C6(C)C)C(C)(C)[C@@H]5CC[C@@]4(C)[C@]3(C)CC[C@@]2(CC(=O)NCc2ccc(O[C@@H]3CCOC3)cc2)CC1=O | 92HT599 | - | MT-2 | p24 / ELISA | <1 µM
O=C(C(=O)N1CCN(C(=O)c2cc3ccccc3[nH]2)CC1)c1c[nH]c2cccc(Cl)c12 | - | - | HeLa + HELA CD4+/CCR5 | luciferase | <10 µM
CCc1cc(C#N)cc(C(=O)c2cc(Cl)ccc2OCC(=O)Nc2ccc(S(N)(=O)=O)cc2C)c1 | HXB2 | RT-K103N V108I | HeLa + HELA CD4+ | β-galactosidase | <0.01 µM
N#CC1=CC2Nc3ccccc3C2N(c2ccc([N+](=O)[O-])cc2)C1=O | C-98IN022 | - | HeLa | GFP / fluorescence | 0.48 µM
COc1c(Cl)cc(S)cc1C(=O)N1CCN(C(=O)C(=O)c2c[nH]c3cccc(F)c23)CC1 | - | - | HeLa + HELA CD4+/CCR5 | luciferase | <10 µM
[2H]C(NC(=O)c1ccc(Cl)cc1)(C(=O)NC[C@H](O)[C@@]12CC[C@]3(C)[C@H](CC[C@@H]4[C@@]5(C)CC[C@H](OC(=O)[C@H]6C[C@@H](C(=O)O)C6(C)C)C(C)(C)[C@@H]5CC[C@]43C)C1=C(C(C)C)C(=O)C2)C(C)O | 92HT599 | - | MT-2 | p24 / ELISA | <1 µM
Cc1ccc(C)n1-c1ccc(C(=O)O)c(O)c1 | SF162 R5 CLADE B | - | PBMC/5.25M7 | luciferase / cell fusion | 20.61 µM
COCc1nc(Nc2ccc(C#N)cc2)nc(Nc2c(C)cc(/C=C/C#N)cc2C)c1C(=O)NCC(OC)OC | IIIB | - | MT4 CMV-EGFP | - | 0.00257 µM
O=C(C(=O)N1CCN(C(=O)c2ccn[nH]2)CC1)c1c[nH]c2cccc(F)c12 | - | - | HeLa + HELA CD4+/CCR5 | luciferase | <10 µM
COCc1nc(Nc2ccc(C#N)cc2)nc(Nc2c(C)cc(/C=C/C#N)cc2C)c1C(=O)NCCc1cccs1 | K103N+Y101C | - | MT4 CMV-EGFP | - | 0.195 µM
CC(C)C1=C2[C@H]3CC[C@@H]4[C@@]5(C)CC[C@H](OC(=O)[C@H]6C[C@@H](C(=O)O)C6(C)C)C(C)(C)[C@@H]5CC[C@@]4(C)[C@]3(C)CC[C@@]2([C@@H](O)CNC(=O)C(C)(C)NC(=O)c2ccc(O[C@@H]3CCOC3)cc2)CC1=O | 92HT599 | - | MT-2 | p24 / ELISA | <1 µM
Cc1cc(S(N)(=O)=O)ccc1NC(=O)COc1ccc(Cl)cc1C(=O)c1cccc(C#N)n1 | HXB2 (RT-K103N G190A) Recombinant | RT-K103N G190A | HeLa + HELA CD4+ | β-galactosidase | <0.01 µM
Cc1ccc(OCCNc2ccc(-c3cnc(C)c([C@H](OC(C)(C)C)C(=O)O)c3N3CCC(C)(C)CC3)cn2)cc1C | NL4-3 | - | MT-2 | luminescence | 0.0032 µM
Cc1cc(S(N)(=O)=O)ccc1NC(=O)COc1ccc(Cl)cc1C(=O)c1cc(F)cc(C#N)c1 | HXB2 | RT-G190A | HeLa + HELA CD4+ | β-galactosidase | <0.01 µM
C[C@@H]1CN(C(=O)c2ccccn2)CCN1C(=O)C(=O)c1c[nH]c2cccc(Br)c12 | - | - | HeLa + HELA CD4+/CCR5 | luciferase | ~10 µM
CC(C)C1=C2[C@H]3CC[C@@H]4[C@@]5(C)CC[C@H](OC(=O)[C@H]6C[C@@H](C(=O)O)C6(C)C)C(C)(C)[C@@H]5CC[C@@]4(C)[C@]3(C)CC[C@@]2([C@@H](O)CNCC(C)(C)NC(=O)c2nccn2C)CC1=O | 92HT599 | - | MT-2 | p24 / ELISA | <1 µM
Cc1cc2cn[nH]c2cc1NC(=O)COc1ccc(Cl)cc1C(=O)c1cccc(C#N)c1 | HXB2 | RT-K103N | HeLa + HELA CD4+ | β-galactosidase | <0.01 µM
COCc1nc(Nc2ccc(C#N)cc2)nc(Nc2c(C)cc(/C=C/C#N)cc2C)c1C(=O)NCc1ccccn1 | MDR | - | MT4 CMV-EGFP | - | 0.0933 µM
Nc1cccc(C(=O)N2CCN(C(=O)C(=O)c3c[nH]c4ccccc34)CC2)c1 | - | - | HeLa + HELA CD4+/CCR5 | luciferase | <10 µM
CC(C)C1=C2[C@H]3CC[C@@H]4[C@@]5(C)CC[C@H](OC(=O)[C@H]6C[C@@H](C(=O)O)C6(C)C)C(C)(C)[C@@H]5CC[C@@]4(C)[C@]3(C)CC[C@@]2(CCN(CCN(C)C)Cc2cc(C(C)C)n[nH]2)CC1=O | 92HT599 | - | MT-2 | p24 / ELISA | <1 µM
CCC(=O)c1ccc(F)c([C@@H]2C[C@@H]2NC(=O)Nc2ccc(C#N)cn2)c1O | LAI | - | TZM-bl | β-galactosidase / luminescence | 0.00068 µM
COCc1nc(Nc2ccc(C#N)cc2)nc(Nc2c(C)cc(/C=C/C#N)cc2C)c1C(=O)NCc1cccnc1 | K103N+Y101C | - | MT4 CMV-EGFP | - | 0.0148 µM
COCCCOc1ncc(-c2cnc(C)c([C@H](OC(C)(C)C)C(=O)O)c2N2CCC(C)(C)CC2)cc1F | NL4-3 | - | MT-2 | luminescence | 0.0022 µM
CC(C)C1=C2[C@H]3CC[C@@H]4[C@@]5(C)CC[C@H](OC(=O)[C@H]6C[C@@H](C(=O)O)C6(C)C)C(C)(C)[C@@H]5CC[C@@]4(C)[C@]3(C)CC[C@@]2(CC(=O)NC[C@@H](N)C(C)C)CC1=O | 92HT599 | - | MT-2 | p24 / ELISA | <1 µM
CN1c2ccccc2C2C1C=C(C#N)C(=O)N2c1ccc([N+](=O)[O-])cc1 | 7295-1 | - | HeLa | GFP / fluorescence | 0.08 µM
Cc1ncc(-c2ccc(OCC3CCC3)cn2)c(N2CCC(C)(C)CC2)c1[C@H](OC(C)(C)C)C(=O)O | NL4-3 | - | MT-2 | luminescence | 0.0011 µM

6 of the rows above, restated:

smiles | strain | changes | cell line | read by | result
CCc1cc(C#N)cc(C(=O)c2cc(Cl)ccc2OCC(=O)Nc2ccc(S(N)(=O)=O)cc2C)c1 | HXB2 | RT-K103N V108I | HeLa + HELA CD4+ | β-galactosidase | <0.01 µM
Cc1cc2cn[nH]c2cc1NC(=O)COc1ccc(Cl)cc1C(=O)c1cccc(C#N)c1 | HXB2 | RT-K103N | HeLa + HELA CD4+ | β-galactosidase | <0.01 µM
COCc1nc(Nc2ccc(C#N)cc2)nc(Oc2c(C)cc(/C=C/C#N)cc2C)c1C(=O)NCc1ccncc1 | IIIB | - | MT4 CMV-EGFP | - | 0.00398 µM
CCC(=O)c1ccc(F)c([C@@H]2C[C@@H]2NC(=O)Nc2ccc(C#N)cn2)c1O | LAI | - | TZM-bl | β-galactosidase / luminescence | 0.00068 µM
Cc1ccc(C)n1-c1ccc(C(=O)O)c(O)c1 | SF162 R5 CLADE B | - | PBMC/5.25M7 | luciferase / cell fusion | 20.61 µM
Cc1ncc(-c2ccc(OCCOc3ccc(Cl)cc3F)nc2)c(N2CCC(C)(C)CC2)c1[C@H](OC(C)(C)C)C(=O)O | NL4-3 | - | MT-2 | luminescence | 0.0037 µM